Measured values from several laboratories, pooled; numbers as filed in NIAID ChemDB.

Shared fields: toxicity to cultured cells; cells: HepG2; measure: CC50

a–b is a range or a potency band.

compound | read by | value
Cc1cc(Cl)ccc1Oc1ccc(-c2nc(N)nc(N)n2)cc1 | sulforhodamine / absorbance | >244 µM
C[C@@H](CCCCCC(F)(F)F)CC1=C(O)c2ccccc2C(=O)C1=O | MTT | 6.83 µM
CCc1ccc([C@H]2C[C@@H](C(F)(F)F)n3ncc(C(=O)NCc4ccc(OC)cc4)c3N2)cc1 | resazurin | >25 µM
CCCCCC[C@H](C)CC1=C(O)c2cccc(C)c2C(=O)C1=O | MTT | 2.48 µM
CC(C)N(Cc1cccc(OCCCCCC(=O)O)c1)C(=O)c1ccc(-c2ccc3c(c2)OCO3)cc1 | - | >20 µM
Cc1c2c(c(C(=O)Nc3cc(F)c(F)c(F)c3)n1C)CCC(C)(C)NC2=O | MTT | >30 µM
CCN(CC)CCCC(C)Nc1c2ccc(Cl)cc2nc2ccc(OC)cc12 | MTT | 7.4 µM
CCOC(=O)CCCCOc1ccccc1C=O | - | >20 µM
Cc1c2c(c(C(=O)Nc3ccc(F)c(F)c3)n1C)CCC(C)NC2=O | MTT | >30 µM
Nc1nc(N)nc(-c2ccc(Sc3ccccc3)cc2)n1 | sulforhodamine / absorbance | >271 µM
Cc1cc(=O)oc2c3c(ccc12)OC(C)(C)[C@@H](OC(=O)CC(C)C)[C@H]3OC(=O)CC(C)C | MTT | 78.23 µM
Cc1ccc(NC(=O)NC2c3ccccc3Sc3ccccc32)cc1 | resazurin | >32 µg/mL
NC(=NC1CCCCCCC1)c1ccc(N2CCN(c3ccc(C(N)=NC4CCCCCCC4)cc3)CC2)cc1 | - | >1.95 µg/mL
Cc1ccccc1C(=O)O[C@H]1c2c(ccc3c(C)cc(=O)oc23)OC(C)(C)[C@H]1OC(=O)c1ccccc1C | MTT | 22.69 µM
CCC(C)CN=C(N)c1ccc(N2CCN(c3ccc(C(N)=NCC(C)CC)cc3)CC2)cc1 | - | >0.107 µg/mL
CC1(C)[C@H]2CC[C@@]34CC[C@@H](C[C@H]3[C@]2(C)CC[C@@H]1O)C([C@@H](O)CO)C4 | MTT | 13.7 µM
C=C1c2c(c(C)n(C)c2C(=O)Nc2ccc(F)c(C)c2)C(=O)NC1C | MTT | 0.5–4.99 µM
Cc1cc(NC(=O)c2c(C)c(C(=O)C(=O)NC3(CO)CCN(C(=O)c4cnn(C)c4)CC3)n(C)c2C)ccc1F | MTT | >30 µM
CCOC(=O)c1cc(O)c(O)c(O)c1 | MTS | >200 µM
CCCc1cc(=O)oc2cc(N3CCN(C(=O)C(C)CC)CC3)c3c(c12)OC(C)(C)C=C3 | ATP / luminescence | >22 µg/mL
CCOc1ccc(Br)c2c1B(O)O[C@@H]2CN | radiometric | 30.5 µM
CCOC(=O)CCCCOc1ccccc1NC(C)C | - | >20 µM
O=C(Oc1ccc(Cl)cc1C(=O)Nc1ccc(Cl)c(Cl)c1)c1cnccn1 | - | 3.16 µM
OCCCNc1nc(NCCCCNc2ccnc3cc(Cl)ccc23)nc(N2CCCCC2)n1 | - | 28.4 µM
COc1ccc(N2CCN(Cc3ccc([N+](=O)[O-])o3)CC2)cc1 | MTT | >63 µM
COc1ccc2nc3cc(Cl)ccc3c(NCCCCNC(=O)/C=C/c3ccc(F)cc3)c2c1 | MTT | 164.7 µM
O=C(N/C(C(=O)N1CCCCC1)=C(/Cl)c1ccccc1)c1ccccc1 | - | >81 µM
Clc1ccc2c(NCCCCNc3nc(Nc4ccccc4)nc(N4CCOCC4)n3)ccnc2c1 | - | 33.2 µM
NC[C@H]1OB(O)c2c(OCCO)ccc(Br)c21 | radiometric | 116 µM
CCCCN1c2ccccc2Sc2ccccc21 | resazurin | >32 µg/mL
Cc1cc(NC(=O)c2c(C)c(C(=O)C(=O)NCC(C)(C)O)n(C)c2C2CCCCC2)ccc1F | MTT | >30 µM
CCOC(=O)CCCCCOc1cccc(CN(C(=O)c2ccc(-c3cccc([N+](=O)[O-])c3)cc2)C(C)C)c1 | - | >20 µM
CN(C)CCCN=C(c1ccccc1)N(CCCN(C)C)c1ccnc2cc(Cl)ccc12 | MTT | 12.02 µg/mL
COc1c(C)c2c(c(O)c1C/C=C(\C)CCC(=O)O)C(=O)OC2 | - | ~40 µM
Cc1c(C(=O)Nc2ccc(N3CCOCC3)nc2)c(C)n(C)c1C(=O)C(=O)NC(C)(C)C | MTT | >30 µM
O=C(Oc1ccc(Br)cc1C(=O)Nc1ccc(C(F)(F)F)cc1)c1cnccn1 | - | 8.02 µM
c1cc(N2CCN(c3ccc(C4=NCCN4)cc3)CC2)ccc1C1=NCCN1 | - | 290.6 µM
C[C@@H]1[C@H](n2ccc(N)nc2=O)O[C@@](CO)(N=[N+]=[N-])[C@H]1O | MTS | 300 µM
Cc1cccc(NC(=O)c2c3c(c(C)n2C)C(=O)N[C@@H](C)C3)c1F | MTT | >30 µM
Oc1ccc([C@H]2Oc3cccc(O)c3C(c3c(O)cc(O)c4c3O[C@H](c3ccc(O)c(O)c3)[C@@H](O)C4)[C@H]2O)cc1O | MTT | >120 µM
Cc1cc(NC(=O)c2c3c(c(C)n2C)C(=O)NC(C)CC3)ccc1F | MTT | >30 µM
CC1(C)C(=O)CC[C@]2(C)[C@@H]1CC[C@@]13CC[C@@H](C[C@H]12)C([C@@H](O)CO)C3 | MTT | >100 µM
CCOC(=O)CCCCCOc1cccc(CN(C(=O)c2ccc(-c3cccnc3)cc2)C(C)C)c1 | - | >20 µM
COc1ccc(/C=C/C(=O)O[C@H]2c3c(ccc4c(C)cc(=O)oc34)OC(C)(C)[C@H]2OC(=O)/C=C/c2ccc(OC)cc2)cc1 | MTT | 89.29 µM
Cc1cc(NC(=O)c2c3c(C)c(C)[nH]c(=O)c3c(C)n2C)ccc1F | MTT | 5–30 µM
Cc1cccc(C)c1Oc1ccc(-c2nc(N)nc(N)n2)cc1 | sulforhodamine / absorbance | >260 µM
NC(=NC1CCC1)c1ccc(N2CCN(c3ccc(C(N)=NC4CCC4)cc3)CC2)cc1 | - | >5.8 µg/mL
CCc1ccc(Nc2nc(NCCCNc3ccnc4cc(Cl)ccc34)nc(N3CCOCC3)n2)cc1 | - | 11.5 µM
Nc1nc2c(ncn2[C@H]2CO[C@@H](CO)O2)c(=O)[nH]1 | - | <25 µM
CCN=C(N)c1ccc(N2CCN(c3ccc(C(N)=NCC)cc3)CC2)cc1 | - | >54.2 µg/mL
NC[C@H]1OB(O)c2c3c(cc(Br)c21)OCCO3 | radiometric | 39.5 µM
CCOC(=O)CCCCCOc1cccc(CN(C(=O)c2ccc(-c3cccc(C(F)(F)F)c3)cc2)C(C)C)c1 | - | >20 µM
Cc1ccc(Oc2ccc(-c3nc(N)nc(N)n3)cc2)cc1 | sulforhodamine / absorbance | >272 µM
CC(C)N(Cc1cccc(OCCCCCC(=O)OC(=O)O)c1)C(=O)c1ccc(-c2cccc(OC(F)(F)F)c2)cc1 | - | >20 µM
Cc1cccc(Oc2ccc(-c3nc(N)nc(N)n3)cc2)c1 | sulforhodamine / absorbance | >273 µM
N/C(=N\O)c1ccc(N2CCN(c3ccc(/C(N)=N/O)cc3)CC2)cc1 | - | 169.3 µM
Cc1cc(NC(=O)c2c(C)c(C(=O)C(=O)NC3(C)CCC(O)CC3)n(C)c2-c2cccnc2)ccc1F | MTT | >30 µM
C=CCCC(=O)NC[C@H](O)c1ccc2c(c1)OCO2 | - | <7.5 µM
Cc1cc(NC(=O)c2c(C)c(C(=O)C(=O)NC3(CC(=O)O)CCCNC3)n(C)c2C)ccc1F | MTT | >30 µM
CCCCCN1C2=C(Sc3ccccc31)C(=O)CCC2 | resazurin | >32 µg/mL
O=C(Oc1cc(Cl)ccc1C(=O)Nc1ccc(C(F)(F)F)cc1)c1cnccn1 | - | 3.68 µM
CCc1c(C(=O)Nc2ccc(F)c(C)c2)c(C)n(C)c1C(=O)C(=O)NC1(C)CCC(O)CC1 | MTT | >30 µM
COc1ccc(Br)c2c1B(O)O[C@@H]2CN | radiometric | 97 µM

A second listing of 6 rows from above:

compound,read by,value
CN(C)CCCN=C(c1ccccc1)N(CCCN(C)C)c1ccnc2cc(Cl)ccc12,MTT,12.02 µg/mL
CC1(C)C(=O)CC[C@]2(C)[C@@H]1CC[C@@]13CC[C@@H](C[C@H]12)C([C@@H](O)CO)C3,MTT,>100 µM
Cc1cccc(Oc2ccc(-c3nc(N)nc(N)n3)cc2)c1,sulforhodamine / absorbance,>273 µM
C[C@@H]1[C@H](n2ccc(N)nc2=O)O[C@@](CO)(N=[N+]=[N-])[C@H]1O,MTS,300 µM
CCCc1cc(=O)oc2cc(N3CCN(C(=O)C(C)CC)CC3)c3c(c12)OC(C)(C)C=C3,ATP / luminescence,>22 µg/mL
CCc1ccc(Nc2nc(NCCCNc3ccnc4cc(Cl)ccc34)nc(N3CCOCC3)n2)cc1,-,11.5 µM

An empty or dashed field is not shown. Conditions beyond the fields shown may differ between rows. CCn is the concentration with n% toxicity to the cells.